Results of unrelated studies side by side (data: NIAID ChemDB).

Shared fields: growth or infection tests; species: Human cytomegalovirus

ECn: concentration that inhibits the pathogen or its effect by n%.

compound | cells | read-out | method | strain or isolate | result
Nc1nc2c(ncn2COC(CO)CO)c(=O)[nH]1 | - | EC50 | plaque count | 17517 (GCV-susceptible) | 3.2 µM
COc1cccc(N2CCN(C3=Nc4c(F)cccc4[C@H](CC(=O)O)N3c3cc(C(F)(F)F)ccc3OC)CC2)c1 | - | EC50 | plaque count | GDGrXbaF4 | 0.0026 µM
O[C@@H]1[C@H](O)[C@H](O)CO[C@H]1n1c(Br)nc2cc(Cl)c(Cl)cc21 | HFF | EC50 | plaque count | C9208/5-4-2 | 2.3 µM
Nc1nc2c(ncn2COC(CO)CO)c(=O)[nH]1 | - | EC50 | plaque count | C4 (D341E) | 6.1 µM
CCCCCCCCCCCCCCCCCCOCCOP(=O)(O)CO[C@H](CO)Cn1ccc(N)nc1=O | MRC-5 | EC50 | plaque count | TOWNE | 0.0009 µM
Nc1nc2c(ncn2COC(CO)CO)c(=O)[nH]1 | HFF | EC50 | plaque count | R56 (BDCRB-resistant) | 2.6 µM
Nc1ccn(C[C@@H](CO)OCP(=O)(O)O)c(=O)n1 | MRC-5 | EC50 | plaque count | C8914-6 drug-resistant mutant | 0.99 µM
Nc1nc2c(ncn2COC(CO)CO)c(=O)[nH]1 | MRC-5 | EC50 | plaque count | C8803 | 3.4 µM
OC[C@H]1O[C@@H](n2c(Br)nc3cc(Cl)c(Cl)cc32)[C@H](O)[C@@H]1O | HFF | EC50 | plaque count | CH | 0.4 µM
OC[C@@H]1O[C@@H](n2c(Cl)nc3cc(Cl)c(Cl)cc32)[C@H](O)[C@@H]1O | HFF | EC50 | plaque count | D10 (BDCRB- and maribavir-resistant) | 56 µM
CC(C)Nc1nc2cc(Cl)c(Cl)cc2n1[C@H]1O[C@@H](CO)[C@H](O)[C@@H]1O | HFF | EC50 | plaque count | TOWNE | 34 µM
Nc1ccn(C[C@H]2COP(=O)(O)CO2)c(=O)n1 | MRC-5 | EC50 | plaque count | WILD TYPE | 0.99 µM
O=C(NCc1ccc(Cl)cc1)c1c[nH]c2c(F)cccc2c1=O | - | EC50 | plaque count | NEW | 7.2 µM
O[C@@H]1[C@H](O)CO[C@H]1n1c(Cl)nc2cc(Cl)c(Cl)cc21 | HFF | EC50 | plaque count | TOWNE | 0.61 µM
Nc1nc2c(ncn2C=C2CC2CO)c(=O)[nH]1 | - | EC90 | plaque count | VR6200 (ganciclovir-susceptible) | 4.8 µM
OC[C@H]1O[C@@H](n2c(Br)nc3cc(Cl)c(Cl)cc32)[C@H](O)[C@@H]1O | - | EC50 | plaque count | 17517 (GCV-susceptible) | 0.46 µM
CC(C)Nc1nc2cc(Cl)c(Cl)cc2n1[C@H]1O[C@@H](CO)[C@H](O)[C@@H]1O | MRC-5 | EC50 | hybridisation | AD169 | 0.12 µM
Nc1nc2c(ncn2COC(CO)CO)c(=O)[nH]1 | HFF | EC50 | plaque count | C9209/1-4-4 drug-resistant | 98 µM

A second listing of 2 rows from above:

{"compound": "O=C(NCc1ccc(Cl)cc1)c1c[nH]c2c(F)cccc2c1=O", "read-out": "EC50", "method": "plaque count", "strain or isolate": "NEW", "result": "7.2 µM"}
{"compound": "COc1cccc(N2CCN(C3=Nc4c(F)cccc4[C@H](CC(=O)O)N3c3cc(C(F)(F)F)ccc3OC)CC2)c1", "read-out": "EC50", "method": "plaque count", "strain or isolate": "GDGrXbaF4", "result": "0.0026 µM"}

Lines come from different laboratories, so protocols vary. An empty or dashed field is not shown.